Measured values from several laboratories, pooled; numbers as filed in NIAID ChemDB.

Shared fields: tests in culture; agent: HIV-1; method: MTT; endpoint: EC50

ECn is the concentration giving n% inhibition of infection, replication or growth. Blank or dashed fields: not listed here. Rows are shuffled and stem from different studies.

structure | strain | changes | cell line | result
Cc1cn([C@H]2C[C@H](N=[N+]=[N-])[C@@H](CO)O2)c(=O)[nH]c1=O | IIIB |  | MT-4 | 0.007 µM
Cc1cc(C#N)cc(C)c1Oc1ccc([N+](=O)[O-])c(NC2CCN(Cc3ccc(S(N)(=O)=O)cc3)CC2)n1 | IIIB |  | MT-4 | 0.019 µg/mL
Cc1cc(C#CC2CC2)cc(C)c1Oc1ccnc(Nc2ccc(C#N)cc2)n1 | IIIB | L100I | MT-4 | 0.163 µM
C#Cc1ccc(Nc2nccc(Oc3c(C)cc(-c4cn(Cc5ccc(S(N)(=O)=O)cc5)nn4)cc3C)n2)cc1 | IIIB | K103N | MT-4 | 0.1 µM
Cc1cn([C@H]2C[C@@H](N=[N+]=[N-])[C@@H](CO)O2)c(=O)[nH]c1=O | IIIB | Resistant strain (K103N + Y181C) | MT-4 | 0.0063 µM
Cc1cn([C@H]2C[C@H](N=[N+]=[N-])[C@@H](CO)O2)c(=O)[nH]c1=O | BCF06 (subtype O) |  | MT-4 | 0.0005 µg/mL
Nc1ccn([C@H]2CC[C@@H](CO)O2)c(=O)n1 | ROD |  | MT-4 | 0.165 µg/mL
C#Cc1ccc(Nc2nccc(Oc3c(C)cc(-c4cn(CC(=O)Nc5ccc(F)cc5)nn4)cc3C)n2)cc1 | IIIB | F227L and V106A | MT-4 | >1.41 µM
Cc1cc(C#Cc2cccc(N)c2)cc(C)c1Oc1ccnc(Nc2ccc(C#N)cc2)n1 | IIIB | L100I | MT-4 | 0.279 µM
C#Cc1ccc(Nc2nccc(Oc3c(C)cc(-c4cn(-c5ccc(C(=O)OC)cc5)nn4)cc3C)n2)cc1 | RES056 |  | MT-4 | >242 µM
Cc1cc(C#Cc2ccccn2)cc(C)c1Oc1ccnc(Nc2ccc(C#N)cc2)n1 | IIIB | E138K | MT-4 | 0.138 µM
Cc1cc(C#N)cc(C)c1Oc1ccnc(NC2CCN(Cc3ccc(S(C)(=O)=O)cc3)CC2)n1 | IIIB |  | MT-4 | 0.0003 µg/mL
Cc1ccnc2c1NC(=O)c1cccnc1N2C1CC1 | 92UG021 (subtype D) |  | MT-4 | 0.08 µg/mL
C#Cc1ccc(Nc2nccc(Oc3c(C)cc(-c4cn(-c5ccc(C(=O)O)cc5)nn4)cc3C)n2)cc1 | IIIB | L100I | MT-4 | 0.77 µM
Cc1cccc(C)c1Oc1ccnc(Nc2ccc(C#N)cc2)n1 | IIIB | RES056 | MT-4 | >12.1 µM
Cc1cc(C)c(Oc2ccc([N+](=O)[O-])c(NC3CCN(Cc4ccc(S(N)(=O)=O)cc4)CC3)n2)c(C)c1 | IIIB |  | MT-4 | 0.0085 µg/mL
Cc1cc(C#Cc2cccc(N)c2)cc(C)c1Oc1ccnc(NC2CCN(Cc3ccc(C#N)cc3)CC2)n1 | IIIB | RES056 | MT-4 | >0.261 µM
CCCN(C)C(=O)Oc1nsnc1-c1c(Cl)ccc(N)c1Cl | IIIB |  | MAGI | 0.019 µM

2 of the rows above, restated:

structure,strain,changes,cell line,result
Cc1cc(C)c(Oc2ccc([N+](=O)[O-])c(NC3CCN(Cc4ccc(S(N)(=O)=O)cc4)CC3)n2)c(C)c1,IIIB,,MT-4,0.0085 µg/mL
Cc1cc(C#Cc2cccc(N)c2)cc(C)c1Oc1ccnc(Nc2ccc(C#N)cc2)n1,IIIB,L100I,MT-4,0.279 µM